Experiments:
Cox B3 = type: cell-based, Coxsackie viruses (Cox B3 Nancy strain); details: selectivity index, Vero cells
HCV = test: Anti-HCV assay in Huh7.5 cells, intracellular HCV RNA by real time RT-PCR; type: cell-based, hepatitis C virus; details: selectivity index
HBV = test: Anti-HBV assay in HepG2.2.15 cells, viral DNA by real time PCR; type: cell-based, Hepatitis B virus; details: selectivity index
Procedure: The synthesized target compounds were assayed for their broad spectrum antiviral activity towards influenza A, HBV, HCV and Cox B3 virus in vitro. […] The inhibitory activities towards HBV and HCV were tested by real time PCR, and lamivudine (3TC) and teleprevir were used as positive controls, respectively.
The anti-HBV activities of test compounds and a positive control drug were tested in HepG2.2.15 cells. The HepG2.2.15 cells were cultured in 96-well plates and treated with the test compounds at 37 °C for 3 days. The medium was removed, and fresh medium containing the test compounds was added for an additional 3 days. The cells were harvested and intracellular DNA was extracted. The inhibition of viral DNA replication in treated cells versus untreated cells was determined by real time PCR.

[1] = tested on: Influenza A/hanfang/359/95; type: cell-based

Row | Structure (SMILES) | SI Cox B3 (Cox B3) | SI HCV (HCV) | SI HBV (HBV) | SI Influenza A/hanfang/359/95 [1]
1 | Clc1ccc(CNc2ccc3cc[nH]c3c2)cc1 [1a, (4-Chlorobenzyl)-(1H-indol-6-yl)-amine] | 1.7 | 11.3 | 5.6 | 
2 | C(=C\c1ccccc1)/CNc1ccc2cc[nH]c2c1 [1b, (E)-(1H-Indol-6-yl)-(3-phenylallyl)-amine] | 3.0 |  |  | 
3 | Cc1ccc(CNc2ccc3cc[nH]c3c2)o1 [1c, (1H-Indol-6-yl)-(5-methylfuran-2-ylmethyl)-amine] | 13.0 | 16.8 |  | 
4 | Cc1ccc(CNc2ccc3cc[nH]c3c2)s1 [1d, (1H-Indol-6-yl)-(5-methylthiophen-2-ylmethyl)-amine] | 39.1 |  |  | 2.2
5 | COc1cc(CNc2ccc3ncoc3c2)cc(Br)c1O [2a, 4-(Benzooxazol-6-ylaminomethyl)-2-bromo-6-methoxyphenol] | 15.7 | 2.7 |  | 
6 | O=[N+]([O-])c1ccc(CNc2ccc3ncoc3c2)cc1 [2b, Benzooxazol-6-yl-(4-nitrobenzyl)-amine] | 8.2 | <3.0 |  | 7.0
7 | C(=C\c1ccccc1)/CNc1ccc2ncoc2c1 [2c, (E)-Benzooxazol-6-yl-(3-phenylallyl)-amine] | 83.5 | 10.1 |  | 11.5
8 | c1csc(CNc2ccc3ncoc3c2)c1 [2d, Benzooxazol-6-yl-thiophen-2-ylmethylamine] | 10.8 | <2.0 |  | 
9 | Clc1ccc(CNc2ccc3ncoc3c2)s1 [2e, Benzooxazol-6-yl-(5-chlorothiophen-2-ylmethyl)-amine] | 8.2 | 2.6 |  | 8.0
10 | c1ncc(CNc2ccc3ncoc3c2)cn1 [2f, Benzooxazol-6-yl-pyrimidin-5-ylmethyl-amine] | 5.2 |  |  | 
11 | c1cnc2c(CNc3ccc4ncoc4c3)cccc2c1 [2g, Benzooxazol-6-yl-quinolin-8-ylmethylamine] | 9.0 | 1.9 |  | 6.2
12 | Nc1ccn([C@@H]2CS[C@H](CO)O2)c(=O)n1 [3TC, lamivudine, reference compound] |  |  | >54.1 | 
13 | COc1cc(CNc2ccc3ncsc3c2)cc(Br)c1O [3a, 4-(Benzothiazol-6-ylaminomethyl)-2-bromo-6-methoxyphenol] | 2.1 | 2.2 |  | 
14 | COc1cccc(CNc2ccc3ncsc3c2)c1O [3b, 2-(Benzothiazol-6-ylaminomethyl)-6-methoxyphenol] | 11.9 | 3.3 |  | 5.6
15 | O=[N+]([O-])c1cccc(CNc2ccc3ncsc3c2)c1 [3c, Benzothiazol-6-yl-(3-nitrobenzyl)-amine] | 15.6 |  |  | 3.6
16 | O=[N+]([O-])c1ccc(CNc2ccc3ncsc3c2)cc1 [3d, Benzothiazol-6-yl-(4-nitrobenzyl)-amine] | 99.5 | 6.3 |  | 80.8
17 | C(=C\c1ccccc1)/CNc1ccc2ncsc2c1 [3e, (E)-benzothiazol-6-yl-(3-phenyl-allyl)-amine] | 17.2 | 4.5 |  | 2.8
18 | COc1ccccc1/C=C/CNc1ccc2ncsc2c1 [3f, (E)-benzothiazol-6-yl-[3-(2-methoxy-phenyl)-allyl]-amine] | 3.9 | 10.9 | 5.7 | 5.2
19 | Cc1ccc(CNc2ccc3ncsc3c2)o1 [3g, Benzothiazol-6-yl-(5-methylfuran-2-ylmethyl)-amine] | 13.0 |  | 30.3 | 3.6
20 | c1csc(CNc2ccc3ncsc3c2)c1 [3h, Benzothiazol-6-yl-thiophen-2-ylmethylamine] | 6.2 | 3.2 |  | 11.9
21 | Clc1ccc(CNc2ccc3ncsc3c2)s1 [3i, Benzothiazol-6-yl-(5-chlorothiophen-2-ylmethyl)-amine] | 5.2 | 3.9 |  | 8.0
22 | c1ncc(CNc2ccc3ncsc3c2)cn1 [3j, Benzothiazol-6-yl-pyrimidin-5-ylmethyl-amine] | 15.6 | <3.0 |  | 3.9
23 | C(=C\c1ccccc1)/CNc1ccc2nc[nH]c2c1 [4a, (E)-(3H-Benzoimidazol-5-yl)-(3-phenyl-allyl)-amine] | 4.0 | 14.3 |  | 3.0
24 | Cc1ccc(CNc2ccc3nc[nH]c3c2)o1 [4b, (3H-Benzoimidazol-5-yl)-(5-methyl-furan-2-ylmethyl)-amine] | 5.2 | >8.2 |  | 20.5
25 | CCOC(=O)C1=C[C@@H](OC(CC)CC)[C@H](NC(C)=O)[C@@H](N)C1 [Oseltamivir, oseltamivir, reference compound] |  |  |  | 212.5
26 | CCC[C@H](NC(=O)[C@@H]1[C@H]2CCC[C@H]2CN1C(=O)[C@@H](NC(=O)[C@@H](NC(=O)c1cnccn1)C1CCCCC1)C(C)(C)C)C(=O)C(=O)NC1CC1 [Telaprevir, telaprevir, reference compound] |  | 2920.0 |  | 
